Literature values as cited in article PMC11091888, “Evaluation of Fusobacterium nucleatum Enoyl-ACP Reductase (FabK) as a Narrow-Spectrum Drug Target” (ACS Infectious Diseases, 2024).

System: CdFabK
Set-up: method as in PMID 37224699
Conditions: previously reported; cited from earlier work

Compound | Hill slope (CdFabK inhibition)
CS(=O)(=O)c1ccc2nc(NC(=O)NCc3nc(-c4ccc(Br)cc4)c[nH]3)sc2c1 [Compound 681, 1-((4-(4-bromophenyl)-1H-imidazole-2-yl)methyl)-3-(6-(methylsulfonyl)benzo[d]thiazol-2-yl)urea] | 0.97
O=C(NCc1nc(-c2ccc(Br)cc2)c[nH]1)Nc1nc2ccccc2s1 [Compound 701] | 0.94
